Results of unrelated studies side by side (data: NIAID ChemDB).

Common to all: tests in culture; agent: Mycobacterium avium; endpoint: MIC

Blank or dashed fields: not listed here. Neighbouring rows are from separate reports.

SMILES | strain or isolate | result
O=C(O)[C@H]1/C(=C/CO)O[C@@H]2CC(=O)N21 | 2 strains | >128 µg/mL
CCCCCCCOc1cccc(NC(=O)OCC[NH+]2CCCC2)c1 | MY330/88 | 16 µM
CCC(CO)NC[C@@H]1O[C@H](CO)[C@@H](O)[C@@H]1O | 3 to 5 clinical isolates | >128 µg/mL
Cc1ccc2[nH]c(=S)[nH]c2c1 | MY330/88 | >500 µM
CCCCCCCCNC[C@H]1O[C@H](O[C@H]2O[C@H](CNCCCCCCCC)[C@@H](O)[C@H](O)[C@H]2O)[C@H](O)[C@@H](O)[C@@H]1O | NJ168 | 8 µg/mL
N#Cc1cnc(C(N)=O)c(Nc2cccc(Br)c2)n1 | 80/72 | >100 µg/mL
Fc1ccc(C(Cn2ccnc2)NC/C=C/c2ccccc2)cc1 | 103317 | 24.9 µM
NCCC(O)C(N)CC(=O)NC1CNC(=O)C(C2CCN=C(N)N2)NC(=O)/C(=C/NC(N)=O)NC(=O)C(CO)NC(=O)C(CO)NC1=O | F | 1.6 µg/mL
CC(C)(C)c1cc(C(C)(C)C)c2nc(C(=O)NCC(=O)O)oc2c1 | MY330/88 | 1000 µM
Cc1ccc(/C=N/N=C(\N)c2ccncc2)c(C)c1 | Isoniazid/rifampicin/ofloxacin-resistant | 64 µg/mL
O=C(Nc1cnccn1)c1ccc(Cl)cc1O | MY330/88 | 250 µM
CCCCCCCOc1ccccc1NC(=O)OCCN1CCCCC1 | MY330/88 | 32 µM
N/C(=N\N=C\c1ccccc1Cl)c1ccncc1 | Isoniazid/rifampicin/ofloxacin-resistant | 16 µg/mL
Cc1ccc2nc(SCc3cccc(Br)c3)[nH]c2c1 | MY330/88 | 62 µM
CN1CCN(Cc2ccccc2N=C/C=C/c2ccccc2)CC1 | 103317 | 32 µg/mL
CCCCCCCCCOc1cccc(NC(=O)OCC[NH+]2CCCC2)c1 | MY330/88 | 32 µM
O/N=C(/Cn1ccnc1)c1ccc(Cl)cc1 | 103317 | 33.9 µM
CN1CCN(Cc2ccccc2NC/C=C/c2ccccc2)CC1 | 103317 | 16 µg/mL
NC(=S)c1cc(SCc2ccc(F)c(F)c2)ccn1 | CNCTC MY330/88 | 7.94 µM
CCC(CO)NC[C@H]1O[C@H](CO)[C@@H](O)[C@@H]1O | 3 to 5 clinical isolates | >128 µg/mL
CC(C)N=C(N)/N=C(\N)NOCCCOc1ccc(Cl)c(Cl)c1 | 101 | 1.95 µg/mL
CCCCCCOc1ccccc1NC(=O)OCC[NH+]1CCCC1 | MY330/88 | 62.5 µM
CN1CCN(Cc2ccc(N=C/C=C/c3ccccc3)cc2)CC1 | 103317 | 16 µg/mL
CC(C)C1Nc2cc(C(C)(C)C)cc(C(C)(C)C)c2O1 | MY330/88 | 1000 µM
C=CCS/C(N)=N/NC(=O)c1ccc(F)cc1 | ATCC 19421 | >100 µg/mL
CN1CCN(Cc2ccccc2NC(=O)/C=C/c2ccccc2)CC1 | 103317 | >16 µg/mL
Cc1cc(NC(=O)c2cc(I)ccc2O)no1 | MY330/88 | 250 µM
c1ccc(-c2ccc(CNc3ccccc3N3CCSCC3)cc2)cc1 | 103317 | 85.5 µM
CS/C(N)=N/NC(=O)c1ccc(F)cc1 | ATCC 19421 | >100 µg/mL
CSC(SSC(C)(C)C)C(N)=O | 225 | >1000 µM
CCCCCOc1cccc(NC(=O)OCCN2CCOCC2)c1 | MY330/88 | 62.5 µM
N/C(=N\N=C\c1ccc([N+](=O)[O-])cc1)c1ccccn1 |  | 256 µg/mL
COc1ccc(C(=O)Nc2nc(C)cs2)c(O)c1 | MY330/88 | 250 µM
CCCCOc1cccc(NC(=O)OCCN2CCCCC2)c1 | MY330/88 | 62.5 µM
N#Cc1cc(SCc2ccc(Cl)c(Cl)c2)ccn1 | CNCTC MY330/88 | 30.9 µM
N/C(=N/N=C/c1ccccc1)c1ccccn1 |  | 32 µg/mL
O=S(=O)(NC[C@H]1O[C@H](O[C@H]2O[C@H](CNS(=O)(=O)c3ccccc3)[C@@H](O)[C@H](O)[C@H]2O)[C@H](O)[C@@H](O)[C@@H]1O)c1ccccc1 | NJ3404 | >128 µg/mL
Clc1ccc(/C(Cn2ccnc2)=N/OCc2ccccc2)cc1 | 103317 | 1.53 µM
C/C=C(/C)C(=O)OC/C=C\C#CC#C/C=C/C(=O)OC |  | 50 µg/mL
Fc1ccc(/C(Cn2ccnc2)=N/OCc2ccc(-c3ccccc3)cc2)cc1 | 103317 | 20.7 µM
C/C=C\C#CC#C/C=C\C(=O)OC |  | 25 µg/mL
N#Cc1cnc(C(N)=O)c(Nc2cc(C(F)(F)F)cc(C(F)(F)F)c2)n1 | 80/72 | >100 µg/mL
CCC(O)C#CC#C/C=C\C(=O)OC |  | 25 µg/mL
CCCCCOc1ccc(NC(=O)OCC[NH+]2CCCC2)cc1 | MY330/88 | 32 µM
CCCCCC(N)=NC[C@H]1O[C@H](O[C@H]2O[C@H](CN=C(N)CCCCC)[C@@H](O)[C@H](O)[C@H]2O)[C@H](O)[C@@H](O)[C@@H]1O | NJ168 | >128 µg/mL
COc1cc(/C=N/N=C(\N)c2ccccn2)cc(OC)c1 |  | 256 µg/mL
CCCCCCCCOc1cccc(NC(=O)OCC[NH+]2CCCC2)c1 | MY330/88 | 16 µM
CC(C)CC(NC(=O)c1nc2c(C(C)(C)C)cc(C(C)(C)C)cc2o1)C(=O)O | MY330/88 | 1000 µM
CC(=O)Oc1cc(Cl)ccc1C(=O)Nc1cccc(Cl)c1 | MY330/88 | 16 µg/mL
Clc1ccc(CNc2cccc(N3CCSCC3)c2)cc1 | 103317 | 25.7 µM
C(=C\c1ccccc1)/CNc1cccc(CN2CCOCC2)c1 | 103317 | 32 µg/mL
CC(=O)Oc1cc(Cl)ccc1C(=O)Nc1ccc(Cl)c(Cl)c1 | MY330/88 | 8 µg/mL
CCCCCCCOc1ccccc1NC(=O)OCC[NH+]1CCCC1 | MY330/88 | 32 µM
N/C(=N\N=C\c1ccc(Cl)cc1)c1ccncc1 | Isoniazid/rifampicin/ofloxacin-resistant | 32 µg/mL
N#Cc1cc(SCc2ccc(F)c(F)c2)ccn1 | CNCTC MY330/88 | 15.85 µM
COc1ccc(C(=O)N/N=C(\N)SC)cc1 | ATCC 19421 | >100 µg/mL
O=C(Nc1ccc(CN2CCOCC2)cc1)c1ccc(-c2ccccc2)cc1 | 103317 | >16 µg/mL
COc1ccc(OC)c(/C=N/N=C(\N)c2ccccn2)c1 |  | 256 µg/mL
CCCCCCCCCCCCN(CCCCCCCCCCCC)C[C@H]1O[C@H](O[C@H]2O[C@H](CN(CCCCCCCCCCCC)CCCCCCCCCCCC)[C@@H](O)[C@H](O)[C@H]2O)[C@H](O)[C@@H](O)[C@@H]1O | NJ3009 | >128 µg/mL
COc1ccc(C(=O)Nn2cncn2)c(O)c1 | MY330/88 | 1000 µM
c1ccc(-c2ccc(CNc3cccc(N4CCSCC4)c3)cc2)cc1 | 103317 | 85.5 µM
Cc1ccc2nc(SCc3ccc(Br)cc3)[nH]c2c1 | MY330/88 | >62 µM
Cc1ccc(C(Cn2ccnc2)OCc2ccc(-c3ccccc3)cc2)cc1 | 103317 | 5.43 µM
Cc1nc2ccc(Cl)cc2c(=S)n1-c1ccc(Br)cc1 | MY330/88 | >31 µg/mL
COc1ccccc1NC(=O)OCC[NH+]1CCCC1 | MY330/88 | >1000 µM
Cc1nc2ccc(Cl)cc2c(=S)n1-c1ccc(C(C)C)cc1 | MY330/88 | 31 µg/mL
Cc1ccc2nc(SCc3ccc(F)cc3)[nH]c2c1 | MY330/88 | 32 µM
NC(=S)c1cc(SCc2cccc(Br)c2)ccn1 | CNCTC MY330/88 | 7.94 µM
Cc1ccc(C(=O)N/N=C(\N)SCc2cccc(Cl)c2)cc1 | ATCC 19421 | >100 µg/mL
NC(=S)c1cc(SCc2cccc(Cl)c2)ccn1 | CNCTC MY330/88 | 7.94 µM
CCCCCCCCS(=O)(=O)NC[C@H]1O[C@H](O[C@H]2O[C@H](CNS(=O)(=O)CCCCCCCC)[C@@H](O)[C@H](O)[C@H]2O)[C@H](O)[C@@H](O)[C@@H]1O | NJ211 | 64 µg/mL
CCCCCOc1ccc(NC(=O)OCC[NH+]2CCCC2)cc1 | MY330/88 | 32 µM
O=C(/C=C/c1ccccc1)Nc1cccc(Cn2ccnc2)c1 | 103317 | >16 µg/mL
CS/C(N)=N/NC(=O)c1ccc([N+](=O)[O-])cc1 | ATCC 19421 | >100 µg/mL
C[C@@H]1C(=O)C[C@H]2[C@H]1CC[C@@](C)(O)[C@H]1CC[C@](C)(O1)[C@@H]2O |  | 128 µg/mL
C(/C=C/c1ccccc1)=Nc1cccc(CN2CCOCC2)c1 | 103317 | 32 µg/mL
NNC(=O)c1ccncc1 | 3350-4 | 1.25 µg/mL
CS/C(N)=N/NC(=O)c1ccccc1 | ATCC 19421 | >100 µg/mL
CN1CCN(Cc2ccccc2NC(=O)c2ccc(-c3ccccc3)cc2)CC1 | 103317 | >16 µg/mL
N#Cc1cc(SCc2ccccc2)ccn1 | CNCTC MY330/88 | 126 µM
CCCCCOc1ccccc1NC(=O)OCC[NH+]1CCCC1 | MY330/88 | 125 µM
COc1ccc(C(=O)Nc2ncn[nH]2)c(O)c1 | MY330/88 | 1000 µM
Cc1ccc(/C=N/N=C(/N)c2ccccn2)cc1 |  | 32 µg/mL
CC(=O)Oc1c(Cl)cccc1C(=O)Nc1ccc(Cl)c(Cl)c1 | MY330/88 | 8 µg/mL
N#Cc1cc(SCc2cccc(Cl)c2)ccn1 | CNCTC MY330/88 | 30.9 µM
N/C(=N\NC(=O)c1ccc(Cl)cc1)SCc1cccc(Cl)c1 | ATCC 19421 | >100 µg/mL
Cc1ccc2nc(SCc3ccc(Cl)cc3)[nH]c2c1 | MY330/88 | 32 µM
C(/C=C/c1ccccc1)=Nc1cccc(Cn2ccnc2)c1 | 103317 | 8 µg/mL
N#Cc1cnc(C(N)=O)c(Nc2ccc(O)cc2)n1 | 80/72 | >100 µg/mL
CCC(CO)NCC[C@H]1O[C@H](O[C@H]2O[C@H](CCNC(CC)CO)[C@@H](O)[C@H](O)[C@H]2O)[C@H](O)[C@@H](O)[C@@H]1O | 3 to 5 clinical isolates | >128 µg/mL
CC(=O)Oc1cc(Cl)ccc1C(=O)Nc1ccc(C(F)(F)F)cc1 | MY330/88 | 4 µg/mL
N/C(=N\NC(=O)c1ccc(Cl)cc1Cl)SCc1cccc(Cl)c1 | ATCC 19421 | >100 µg/mL
CCC(CO)NC[C@@H]1N[C@H](CO)[C@@H](O)[C@@H]1O | 3 to 5 clinical isolates | >128 µg/mL

The last 8 rows once more:

SMILES,strain or isolate,result
N/C(=N\NC(=O)c1ccc(Cl)cc1)SCc1cccc(Cl)c1,ATCC 19421,>100 µg/mL
Cc1ccc2nc(SCc3ccc(Cl)cc3)[nH]c2c1,MY330/88,32 µM
C(/C=C/c1ccccc1)=Nc1cccc(Cn2ccnc2)c1,103317,8 µg/mL
N#Cc1cnc(C(N)=O)c(Nc2ccc(O)cc2)n1,80/72,>100 µg/mL
CCC(CO)NCC[C@H]1O[C@H](O[C@H]2O[C@H](CCNC(CC)CO)[C@@H](O)[C@H](O)[C@H]2O)[C@H](O)[C@@H](O)[C@@H]1O,3 to 5 clinical isolates,>128 µg/mL
CC(=O)Oc1cc(Cl)ccc1C(=O)Nc1ccc(C(F)(F)F)cc1,MY330/88,4 µg/mL
N/C(=N\NC(=O)c1ccc(Cl)cc1Cl)SCc1cccc(Cl)c1,ATCC 19421,>100 µg/mL
CCC(CO)NC[C@@H]1N[C@H](CO)[C@@H](O)[C@@H]1O,3 to 5 clinical isolates,>128 µg/mL